The assay concerns JHMV A1438T/G1439V recombinant virus. The format is cell-based, murine hepatitis virus (MHV).

Structures are written as SMILES.

In the case of `COC(=O)[C@H](Cc1c[nH]c2ccccc12)Nc1ncnc2[nH]ccc12` [Compound 5a], the “Fold change in PFU/mL, WT vs A1438T/G1439V” value came out at 2.0 x.

As for `CC(C)OC(=O)[C@H](Cc1c[nH]c2ccccc12)Nc1ncnc2[nH]ccc12` [Compound 5c], the “Fold change in PFU/mL, WT vs A1438T/G1439V” value is listed as 2.8 x.

Source of the values: publication PMC12153294 (mBio, 2025).
